# Measured values reported in doi:10.1101/2025.02.16.638509 (2025).
# Target: biotinylated Tom70 ([…]), AVI-tagged (human, biotin (AVI-tag, BirA co-expression))
# Test: SPR
binder,measurement,value
refolded WT Orf9b (apo-homodimer) (natural protein) not shown,koff,0.0039 s⁻¹
